The assay concerns Botrytis cinerea. As to the kind of experiment: Antifungal MIC assay in SFM, without or with added salts. Particulars: low cationic conditions, V1A, V3A, V4A, V5A: B. cinerea, F. graminearum, F. oxysporum, P. capsici, V2A: B. cinerea, V6A: B. cinerea.

We go through 1 compound from patent US20220408731A1, “MODIFIED ANTIMICROBIAL PEPTIDES” (priority 2021, published 2022).

Structures are written as SMILES.

`CC[C@H](C)[C@@H]1NC(=O)[C@H](CCCNC(=N)N)NC(=O)[C@H]([C@@H](C)O)NC(=O)[C@H](C(C)C)NC(=O)[C@H](Cc2ccccc2)NC(=O)[C@H](C(C)C)NC(=O)[C@H](CCCNC(=N)N)NC(=O)[C@H](CCCNC(=N)N)NC(=O)[C@H](CCCNC(=N)N)NC(=O)[C@H](Cc2ccccc2)NC(=O)CNC(=O)[C@H](CCCNC(=N)N)NC(=O)[C@@H](NC(=O)[C@H](CCCNC(=N)N)NC(=O)CNC(=O)CN)CSSC[C@@H](C(N)=O)NC1=O` [GMA4C_V3A]: the “Antifungal activity in vitro relative to the wild-type GMA4C_AC control” value is reported as “equivalent to the wild-type GMA4C_AC control”.
